Laboratory results: PubChem BioAssay AID1259414 (Drosophila RNAi Screening Center, 2018)
Screen: 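Fly genes that alter Wolbachia amount inside host cells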 (primary screen). Cells: Drosophila JW18 cells infected with Wolbachia. Knock-down reagent: long dsRNA against Drosophila genes, 0.25 µg dsRNA per well of a 384-well plate. Timing: 5 days. Conditions: cells persistently infected with Wolbachia before knock-down; no added drug. Measured: 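Automated imaging of bacterial rRNA staining divided by host cell count, reported as plate-normalised robust z-score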. Direction: Wolbachia per cell robust z: higher = more Wolbachia per host cell than the plate typical. Active means: 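Hit when robust z is 1.5 or more, or -1.5 or less, in at least two of three replicates; excludes dsRNAs with several or no targets, genes not expressed in JW18 and well A1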.
The deposit covers about 24,000 reagents; below is an unselected part of those that have a named target and a result. Of all reagents, about 1,210 (5%) got an active call. 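Inactive calls also include excluded dsRNAs with several or no targets, genes unexpressed in JW18, and well A1, regardless of score.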 Names joined by + are all predicted targets of the reagent.

For PIG-H + Kmn2 [DRSC12653], what does the deposit list?
Wolbachia per cell robust z, rep 1: 0.919; Wolbachia per cell robust z, rep 2: 0.197; Wolbachia per cell robust z, rep 3: 0.881; activity call: inactive

What did the screen give for Prat (GeneID 40935) [DRSC16797]?
Wolbachia per cell robust z, rep 1: -0.145; Wolbachia per cell robust z, rep 2: -1.99; Wolbachia per cell robust z, rep 3: 0.507; activity call: inactive

What is on record for CG15115 (GeneID 37192) [DRSC06537]?
Wolbachia per cell robust z, rep 1: -0.165; Wolbachia per cell robust z, rep 2: 0.402; Wolbachia per cell robust z, rep 3: 0.158; activity call: inactive

Which result is listed for CG14321 (GeneID 42134) [DRSC14800]?
Wolbachia per cell robust z, rep 1: 1.37; Wolbachia per cell robust z, rep 2: 0.182; Wolbachia per cell robust z, rep 3: 1.08; activity call: inactive

With CG14321 (GeneID 42134) [DRSC26935], what does the deposit list?
Wolbachia per cell robust z, rep 1: 0.491; Wolbachia per cell robust z, rep 2: 1.23; Wolbachia per cell robust z, rep 3: -0.112; activity call: inactive

What did the screen give for Mal-A4 (GeneID 35827) [DRSC07236]?
Wolbachia per cell robust z, rep 1: 0.798; Wolbachia per cell robust z, rep 2: 0.797; Wolbachia per cell robust z, rep 3: 1.38; activity call: inactive

Which result is listed for Mal-A4 (GeneID 35827) [DRSC28546]?
Wolbachia per cell robust z, rep 1: -0.634; Wolbachia per cell robust z, rep 2: -0.162; Wolbachia per cell robust z, rep 3: -2.69; activity call: inactive

With vers (GeneID 39374) [DRSC23232], what does the deposit list?
Wolbachia per cell robust z, rep 1: 0.922; Wolbachia per cell robust z, rep 2: 0.0193; Wolbachia per cell robust z, rep 3: 1.07; activity call: inactive

With CG14391 (GeneID 41567) [DRSC14850], how do the results read?
Wolbachia per cell robust z, rep 1: 0.533; Wolbachia per cell robust z, rep 2: -0.824; Wolbachia per cell robust z, rep 3: 0.0121; activity call: inactive

What did the screen give for CG14391 (GeneID 41567) [DRSC28373]?
Wolbachia per cell robust z, rep 1: 0.605; Wolbachia per cell robust z, rep 2: 0.657; Wolbachia per cell robust z, rep 3: 0.236; activity call: inactive

With Polr2D + Ada2a [DRSC40781], what was measured?
Wolbachia per cell robust z, rep 1: 0.37; Wolbachia per cell robust z, rep 2: 1.19; Wolbachia per cell robust z, rep 3: 1.27; activity call: inactive

With CG12290 (GeneID 43182) [DRSC14497], what was measured?
Wolbachia per cell robust z, rep 1: -1.07; Wolbachia per cell robust z, rep 2: 0.867; Wolbachia per cell robust z, rep 3: 0.522; activity call: inactive

Which result is listed for CG12290 (GeneID 43182) [DRSC28328]?
Wolbachia per cell robust z, rep 1: 0.929; Wolbachia per cell robust z, rep 2: 0.44; Wolbachia per cell robust z, rep 3: 0.647; activity call: inactive

With Reck (GeneID 39629) [DRSC10504], how do the results read?
Wolbachia per cell robust z, rep 1: -0.588; Wolbachia per cell robust z, rep 2: -0.574; Wolbachia per cell robust z, rep 3: 1.85; activity call: inactive

What did the screen give for Reck (GeneID 39629) [DRSC10505]?
Wolbachia per cell robust z, rep 1: -0.233; Wolbachia per cell robust z, rep 2: 0.543; Wolbachia per cell robust z, rep 3: -0.165; activity call: inactive

How did the screen score fon (GeneID 35211) [DRSC02507]?
Wolbachia per cell robust z, rep 1: -0.324; Wolbachia per cell robust z, rep 2: 0.102; Wolbachia per cell robust z, rep 3: 0.481; activity call: inactive

What did the screen give for Rab2 (GeneID 35577) [DRSC05017]?
Wolbachia per cell robust z, rep 1: 1.09; Wolbachia per cell robust z, rep 2: 0.7; Wolbachia per cell robust z, rep 3: 1.22; activity call: inactive

For Rab2 (GeneID 35577) [DRSC26810], how do the results read?
Wolbachia per cell robust z, rep 1: 1.04; Wolbachia per cell robust z, rep 2: 0.577; Wolbachia per cell robust z, rep 3: 0.233; activity call: inactive

What is on record for fliI (GeneID 33110) [DRSC20578]?
Wolbachia per cell robust z, rep 1: -0.0974; Wolbachia per cell robust z, rep 2: -1.18; Wolbachia per cell robust z, rep 3: 0.678; activity call: inactive

With CG7744 (GeneID 37239) [DRSC07036], what was measured?
Wolbachia per cell robust z, rep 1: -0.797; Wolbachia per cell robust z, rep 2: 0.423; Wolbachia per cell robust z, rep 3: 0.568; activity call: inactive

With Gagr (GeneID 39824) [DRSC10441], what does the deposit list?
Wolbachia per cell robust z, rep 1: -0.311; Wolbachia per cell robust z, rep 2: -0.0108; Wolbachia per cell robust z, rep 3: -0.107; activity call: inactive

What did the screen give for CG6847 (GeneID 32778) [DRSC19213]?
Wolbachia per cell robust z, rep 1: 1.12; Wolbachia per cell robust z, rep 2: 0.302; Wolbachia per cell robust z, rep 3: 1.32; activity call: inactive

For CG6847 (GeneID 32778) [DRSC20009], what does the deposit list?
Wolbachia per cell robust z, rep 1: 1.32; Wolbachia per cell robust z, rep 2: 0.988; Wolbachia per cell robust z, rep 3: 0.0149; activity call: inactive

What did the screen give for CG15249 (GeneID 31924) [DRSC17978]?
Wolbachia per cell robust z, rep 1: 0.719; Wolbachia per cell robust z, rep 2: 0.733; Wolbachia per cell robust z, rep 3: -2.45; activity call: inactive

Quoted from the listing (2 entries):
CG14391 (GeneID 41567) [DRSC28373] → Wolbachia per cell robust z, rep 1: 0.605; Wolbachia per cell robust z, rep 2: 0.657; Wolbachia per cell robust z, rep 3: 0.236; activity call: inactive
Polr2D + Ada2a [DRSC40781] → Wolbachia per cell robust z, rep 1: 0.37; Wolbachia per cell robust z, rep 2: 1.19; Wolbachia per cell robust z, rep 3: 1.27; activity call: inactive
